Potato spindle tuber viroid, loop 6: variant abundance in plants

Region: loop 6 of PSTVd (intermediate strain), upper and lower strand joined, each 5' to 3', the first 5 letters being the upper strand, closing pairs included. Wild type: UGACCGCGAG. Varied positions (N): UNNNCGNNNG.

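A pool of all variants was put on leaves of three Nicotiana benthamiana plants. Progeny were sequenced from the inoculated region (day 5), the margin of the inoculated leaf (day 10) and systemic leaves (day 12).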

Numbers give reads per thousand; 0 = not seen among the reads, higher = more abundant.
Each value is the mean of three plants.
"Pool" is the share in the plasmid pool used as inoculum, on the same scale.
The inoculated region was read from the minus strand, the other sites from the plus strand.
IR is the inoculated region, LM the leaf margin, Sys the systemic leaves.
Samples held 36,220 to 57,551 reads, so the smallest values rest on one or two reads.

- UGUACGUGUG (pool 0.261): IR 0.0538; LM 0.00773; Sys 0
- UUUGCGGAGG (pool 0.131): IR 0.0708; LM 0.0184; Sys 0
- UCUUCGAUCG (pool 0.327): IR 0.101; LM 0.00773; Sys 0
- UUAUCUGUCC (pool 0.0131): IR 0; LM 0; Sys 0
- UUUCCGUUCG (pool 0.209): IR 0.0771; LM 0.0232; Sys 0
- UUUUCGGGCG (pool 0.105): IR 0.102; LM 0.00920; Sys 0
- UUUUCGGAUG (pool 0.144): IR 0.0594; LM 0.00773; Sys 0
- UGUGCGACGG (pool 0.222): IR 0.113; LM 0.00920; Sys 0
- UGUACGUUCG (pool 0.301): IR 0.0653; LM 0.0169; Sys 0
- UGACCGCUUG (pool 0.471): IR 0.281; LM 0.695; Sys 0.237
- UCAUCGGCAG (pool 0.144): IR 0.0715; LM 0; Sys 0
- UCCGCGAAGG (pool 0.105): IR 0.0961; LM 0; Sys 0
- UCCUCGGAGG (pool 0.144): IR 0.0953; LM 0; Sys 0
- UCACCGGGAG (pool 0.170): IR 0.113; LM 0.0155; Sys 0
- UGAGCCUACG (pool 0.0131): IR 0; LM 0; Sys 0
- UCUACGGAUG (pool 0.275): IR 0.136; LM 0.270; Sys 0
- UUCGCGCAAG (pool 0.157): IR 0.107; LM 0; Sys 0
- UAUUCGAGGG (pool 0.235): IR 0.0480; LM 0.00920; Sys 0
- UCUUCGGUGG (pool 0.418): IR 0.106; LM 0.320; Sys 0
- UAAUCGACAG (pool 0.327): IR 0.0953; LM 0; Sys 0.0203
- UUCUCGAGAG (pool 0.366): IR 0.113; LM 0; Sys 0
- UAACCGAGUG (pool 0.118): IR 0.119; LM 0; Sys 0
- UACGCGCUUG (pool 0.183): IR 0.101; LM 0.00920; Sys 0

The first 3 entries again:

sequence	pool	IR	LM	Sys
UGUACGUGUG	0.261	0.0538	0.00773	0
UUUGCGGAGG	0.131	0.0708	0.0184	0
UCUUCGAUCG	0.327	0.101	0.00773	0

Wild type was 20.7 per thousand in the pool and the most common sequence in every sample (inoculated region 195, 198, 203; leaf margin 629, 591, 734; systemic leaves 942, 870, 868).
Sequences that differ at fixed positions probably stem from PCR or sequencing errors, and defective variants can be carried along by functional ones.

Values reported by Wu et al. 2024 (doi:10.1371/journal.ppat.1012142).